A mixed list of measured activities; the numbers were collected in NIAID ChemDB.

Shared fields: tests in culture; organism: Candida albicans; read-out: MIC

Lines come from different laboratories, so protocols vary.

SMILES	strain or isolate	result
CCCCCOc1ccc(-c2ccc(-c3ccc(C(=O)N[C@H]4CCCNC(=O)[C@@H]5C[C@H](N)CN5C(=O)[C@H](Cc5ccc(O)cc5)NC(=O)C(CCc5ccc(O)cc5)NC(=O)[C@@H]5C[C@@H](O)CN5C(=O)[C@H]([C@@H](C)O)NC4=O)cc3)cc2)cc1	ATCC 62376	1.56 µg/mL
Clc1ccc(C(Cn2ccnc2)OC/C=C/c2ccccc2)cc1	CA6	>128 µg/mL
CCCCCOc1ccc(-c2ccc(-c3ccc(C(=O)N[C@H]4CCCNC(=O)[C@@H]5C[C@H](N)CN5C(=O)[C@H](CC)NC(=O)C(CCc5ccc(O)cc5)NC(=O)[C@@H]5C[C@@H](O)CN5C(=O)[C@H]([C@@H](C)O)NC4=O)cc3)cc2)cc1	ATCC 62376	0.1 µg/mL
CCCCCCCCOc1ccc(N2CCN(c3ccc(C(=O)N[C@H]4CCCNC(=O)C5C[C@H](N)CN5C(=O)C(C(C)O)NC(=O)C(CCc5ccc(O)cc5)NC(=O)C5C[C@@H](O)CN5C(=O)C(C(C)O)NC4=O)cc3)CC2)cc1	ATCC CCH442	0.2 µg/mL
CCCCCCCCNC1CCCNC(=O)[C@@H]2C[C@H](N)CN2C(=O)[C@H]([C@@H](C)O)NC(=O)[C@H](CCc2ccc(O)cc2)NC(=O)[C@@H]2C[C@@H](O)CN2C(=O)[C@H]([C@@H](C)O)NC1=O	ATCC 38247	0.2 µg/mL
CCCCCOc1ccc(-c2ccc(-c3ccc(C(=O)N[C@H]4CCCNC(=O)C5C[C@H](N)CN5C(=O)C(C(C)O)NC(=O)C(c5ccc(O)cc5)NC(=O)C5CC(O)CN5C(=O)C(C(C)O)NC4=O)cc3)cc2)cc1	ATCC CCH442	50 µg/mL
C[C@@H](n1cnc2cc(N3CCN(c4ccc([N+](=O)[O-])cc4)CC3)ccc2c1=O)[C@](O)(Cn1cncn1)c1ccc(F)cc1F	76 strains	0.63 µg/mL
Cc1c(O)cccc1C(=O)N[C@@H](CSc1ccccc1)[C@H](O)CN1C[C@H]2CCCC[C@H]2C[C@H]1C(=O)NC(C)(C)C	I67A	64 µg/mL
CCCCCOc1ccc(-c2ccc(-c3ccc(C(=O)N[C@H]4CCCNC(=O)[C@@H]5C[C@H](NC(=O)CCC(=O)O)CN5C(=O)[C@H]([C@@H](C)O)NC(=O)[C@H](CCc5ccc(O)cc5)NC(=O)[C@@H]5C[C@@H](O)CN5C(=O)[C@H]([C@@H](C)O)NC4=O)cc3)cc2)cc1	ATCC 10231	0.78 µg/mL
CCCCCCCCOc1ccc(N2CCN(c3ccc(C(=O)N[C@H]4CCCNC(=O)[C@@H]5C[C@H](N=C(N)N)CN5C(=O)[C@H](CCN)NC(=O)[C@H](CCc5ccc(O)cc5)NC(=O)[C@@H]5C[C@@H](O)CN5C(=O)[C@H]([C@@H](C)O)NC4=O)cc3)CC2)cc1	ATCC 62376	0.78 µg/mL
CCOc1cc2c(cc1F)n([O-])c(C)c(Cl)[n+]2=O	Clinical isolate 18	7.8 µg/mL
C[C@@H](n1cnc2cc(N3CCN(C)CC3)ccc2c1=O)[C@](O)(Cn1cncn1)c1ccc(F)cc1F	406 strains	5 µg/mL
CN(CCCC#CC(C)(C)C)c1cccc2c1CCC(=O)N2	Clinical isolate 23	15.6 µg/mL
COc1cc(O)c2c(c1)C(=O)c1c(cc3c(c1O)-c1c(cc(C)c(C(=O)NC(CO)C(=O)O)c1O)[C@H](OC1OC(C)C(O)C(OC4OCC(O)C(O)C4O)C1O)C3O)C2=O	A25942 (amphotericin B-resistant)	4 µg/mL
C[C@@H](O)[C@@H]1NC(=O)[C@H](CCc2ccc(O)cc2)NC(=O)[C@@H]2C[C@@H](O)CN2C(=O)[C@H]([C@@H](C)O)NC(=O)[C@@H](NC(=O)c2ccccc2)CCCNC(=O)[C@@H]2C[C@H](N)CN2C1=O	ATCC 38247	>100 µg/mL
O[C@](Cn1cncn1)(Cn1cnc(/C=C/c2ccc(OCC(F)(F)C(F)F)cc2)n1)c1ccc(F)cc1F	Isolate 015-13	0.12 µg/mL
C[C@@H](n1cnc2cc(Cl)ccc2c1=O)[C@](O)(Cn1cncn1)c1ccccc1F	76 strains	5 µg/mL
Clc1ccc(C(Cn2ccnc2)OC/C=C/c2ccccc2)c(Cl)c1	CA12	8 µg/mL
Cc1c(S(=O)(=O)c2ccccc2)[n+](=O)c2ccccc2n1[O-]	Clinical isolate 23	15.6 µg/mL
CCCCCC(CCCCC)c1ccc(N2CCN(c3ccc(C(=O)N[C@H]4CCCNC(=O)C5C[C@H](N)CN5C(=O)C(C(C)O)NC(=O)C(CCc5ccc(O)cc5)NC(=O)C5C[C@@H](O)CN5C(=O)C(C(C)O)NC4=O)cc3)CC2)cc1	ATCC CCH442	0.78 µg/mL
CC(C)(C)c1ccc(COC(Cn2ccnc2)c2ccccc2)cc1	Y0109	>128 µg/mL
COc1ccc(N2CCN(c3ccc(C(=O)N[C@H]4CCCNC(=O)C5C[C@H](N)CN5C(=O)C(C(C)O)NC(=O)C(CCc5ccc(O)cc5)NC(=O)C5C[C@@H](O)CN5C(=O)C(C(C)O)NC4=O)cc3)CC2)cc1	ATCC CCH442	3.12 µg/mL
Cc1c(Cl)[n+](=O)c2cc(Cl)ccc2n1[O-]	Clinical isolate 17	31.25 µg/mL
CC(/C=C/C=C(\C)C(O)C(C)C(=O)O[C@H]1C[C@@H](C)C=C2C=C[C@]3(C)O[C@@H](O)CC(=O)[C@]3(C)[C@H]21)=C\C=C\C(=O)O	AC3401	0.78 µg/mL
CCCCCOc1ccc(-c2ccc(-c3ccc(C(=O)N[C@H]4CCCNC(=O)[C@@H]5C[C@H](N)CN5C(=O)[C@H]([C@@H](C)O)NC(=O)[C@H](COCc5ccccc5)NC(=O)[C@@H]5C[C@@H](O)CN5C(=O)[C@H]([C@@H](C)O)NC4=O)cc3)cc2)cc1	ATCC 38247	3.12 µg/mL
Cc1ccc(C(Cn2ccnc2)OCc2cccc3ccccc23)cc1	CA6	>128 µg/mL
CCCCCOc1ccc(-c2ccc(-c3ccc(C(=O)N[C@H]4CCCNC(=O)[C@@H]5C[C@H](N)CN5C(=O)[C@H](CCCN)NC(=O)C(CCc5ccc(O)cc5)NC(=O)[C@@H]5C[C@@H](O)CN5C(=O)[C@H]([C@@H](C)O)NC4=O)cc3)cc2)cc1	ATCC 38247	0.39 µg/mL
CCCCCOc1ccc(-c2ccc(-c3ccc(C(=O)N[C@H]4CCCNC(=O)[C@@H]5C[C@H](NC)CN5C(=O)[C@H]([C@@H](C)O)NC(=O)[C@H](CCc5ccc(O)cc5)NC(=O)[C@@H]5C[C@@H](O)CN5C(=O)[C@H]([C@@H](C)O)NC4=O)cc3)cc2)cc1	ATCC 62376	0.2 µg/mL
N=C(N)c1ccc2nc(-c3ccc(-c4nc5ccc(C(=N)N)cc5[nH]4)[nH]3)[nH]c2c1	A39	0.78 µg/mL
C[C@H](n1cnc2cc3ccccc3cc2c1=O)[C@](O)(Cn1cncn1)c1ccc(F)cc1F	406 strains	≤0.03 µg/mL
CCCCCOc1ccc(-c2ccc(-c3ccc(C(=O)N[C@H]4CCCNC(=O)[C@@H]5C[C@H](N)CN5C(=O)[C@H](CO)NC(=O)C(CCc5ccc(O)cc5)NC(=O)[C@@H]5C[C@@H](O)CN5C(=O)[C@H]([C@@H](C)O)NC4=O)cc3)cc2)cc1	ATCC 62376	0.1 µg/mL
Cc1c(Sc2ccccc2)[n+](=O)c2cc(Cl)ccc2n1[O-]	Clinical isolate 9	31.25 µg/mL
CCCCCCCCOc1ccc(N2CCN(c3ccc(C(=O)N[C@H]4CCCNC(=O)C5C[C@H](N)CN5C(=O)C(C(C)O)NC(=O)C(OCc5ccncc5)NC(=O)C5CCCN5C(=O)C(C(C)O)NC4=O)cc3)CC2)cc1	ATCC 62376	3.12 µg/mL
c1ccc(-c2ccc(COC(Cn3ccnc3)c3ccccc3)cc2)cc1	PR1	>128 µg/mL
C[C@@H](n1cnc2cc(NCc3ccccc3)ccc2c1=O)[C@](O)(Cn1cncn1)c1ccc(F)cc1F	406 strains	≤0.03 µg/mL

Repeating the first 3 entries:

SMILES	strain or isolate	result
CCCCCOc1ccc(-c2ccc(-c3ccc(C(=O)N[C@H]4CCCNC(=O)[C@@H]5C[C@H](N)CN5C(=O)[C@H](Cc5ccc(O)cc5)NC(=O)C(CCc5ccc(O)cc5)NC(=O)[C@@H]5C[C@@H](O)CN5C(=O)[C@H]([C@@H](C)O)NC4=O)cc3)cc2)cc1	ATCC 62376	1.56 µg/mL
Clc1ccc(C(Cn2ccnc2)OC/C=C/c2ccccc2)cc1	CA6	>128 µg/mL
CCCCCOc1ccc(-c2ccc(-c3ccc(C(=O)N[C@H]4CCCNC(=O)[C@@H]5C[C@H](N)CN5C(=O)[C@H](CC)NC(=O)C(CCc5ccc(O)cc5)NC(=O)[C@@H]5C[C@@H](O)CN5C(=O)[C@H]([C@@H](C)O)NC4=O)cc3)cc2)cc1	ATCC 62376	0.1 µg/mL